Here are results for one substance from patent US12109253B2, “Use of IGFBP7 for treating malaria” (AGENCY FOR SCIENCE, TECHNOLOGY AND RESEARCH, priority 2019, dated 2024).

The series is described as follows: Plasma IGFBP7 levels, Malawian clinical study. Details: species or system human.

In the case of “insulin-like growth factor binding protein 7 [IGFBP7]”, the “plasma IGFBP7 levels (mean)” value stood at 100.5 ± 17.88 ng/mL (17 paediatric uncomplicated falciparum malaria patients), 53.29 ± 18.38 ng/mL (paediatric cerebral malaria patients) and 54.59 ± 16.80 ng/mL (uninfected controls).
